Laboratory results from patent publication US5739276A, “Conotoxin peptides” (dated 1998).

By UniProt entry, the sequences of proteins in these tests, tags left out. Residues count along the entry.
UniProt Q02294, whole entry: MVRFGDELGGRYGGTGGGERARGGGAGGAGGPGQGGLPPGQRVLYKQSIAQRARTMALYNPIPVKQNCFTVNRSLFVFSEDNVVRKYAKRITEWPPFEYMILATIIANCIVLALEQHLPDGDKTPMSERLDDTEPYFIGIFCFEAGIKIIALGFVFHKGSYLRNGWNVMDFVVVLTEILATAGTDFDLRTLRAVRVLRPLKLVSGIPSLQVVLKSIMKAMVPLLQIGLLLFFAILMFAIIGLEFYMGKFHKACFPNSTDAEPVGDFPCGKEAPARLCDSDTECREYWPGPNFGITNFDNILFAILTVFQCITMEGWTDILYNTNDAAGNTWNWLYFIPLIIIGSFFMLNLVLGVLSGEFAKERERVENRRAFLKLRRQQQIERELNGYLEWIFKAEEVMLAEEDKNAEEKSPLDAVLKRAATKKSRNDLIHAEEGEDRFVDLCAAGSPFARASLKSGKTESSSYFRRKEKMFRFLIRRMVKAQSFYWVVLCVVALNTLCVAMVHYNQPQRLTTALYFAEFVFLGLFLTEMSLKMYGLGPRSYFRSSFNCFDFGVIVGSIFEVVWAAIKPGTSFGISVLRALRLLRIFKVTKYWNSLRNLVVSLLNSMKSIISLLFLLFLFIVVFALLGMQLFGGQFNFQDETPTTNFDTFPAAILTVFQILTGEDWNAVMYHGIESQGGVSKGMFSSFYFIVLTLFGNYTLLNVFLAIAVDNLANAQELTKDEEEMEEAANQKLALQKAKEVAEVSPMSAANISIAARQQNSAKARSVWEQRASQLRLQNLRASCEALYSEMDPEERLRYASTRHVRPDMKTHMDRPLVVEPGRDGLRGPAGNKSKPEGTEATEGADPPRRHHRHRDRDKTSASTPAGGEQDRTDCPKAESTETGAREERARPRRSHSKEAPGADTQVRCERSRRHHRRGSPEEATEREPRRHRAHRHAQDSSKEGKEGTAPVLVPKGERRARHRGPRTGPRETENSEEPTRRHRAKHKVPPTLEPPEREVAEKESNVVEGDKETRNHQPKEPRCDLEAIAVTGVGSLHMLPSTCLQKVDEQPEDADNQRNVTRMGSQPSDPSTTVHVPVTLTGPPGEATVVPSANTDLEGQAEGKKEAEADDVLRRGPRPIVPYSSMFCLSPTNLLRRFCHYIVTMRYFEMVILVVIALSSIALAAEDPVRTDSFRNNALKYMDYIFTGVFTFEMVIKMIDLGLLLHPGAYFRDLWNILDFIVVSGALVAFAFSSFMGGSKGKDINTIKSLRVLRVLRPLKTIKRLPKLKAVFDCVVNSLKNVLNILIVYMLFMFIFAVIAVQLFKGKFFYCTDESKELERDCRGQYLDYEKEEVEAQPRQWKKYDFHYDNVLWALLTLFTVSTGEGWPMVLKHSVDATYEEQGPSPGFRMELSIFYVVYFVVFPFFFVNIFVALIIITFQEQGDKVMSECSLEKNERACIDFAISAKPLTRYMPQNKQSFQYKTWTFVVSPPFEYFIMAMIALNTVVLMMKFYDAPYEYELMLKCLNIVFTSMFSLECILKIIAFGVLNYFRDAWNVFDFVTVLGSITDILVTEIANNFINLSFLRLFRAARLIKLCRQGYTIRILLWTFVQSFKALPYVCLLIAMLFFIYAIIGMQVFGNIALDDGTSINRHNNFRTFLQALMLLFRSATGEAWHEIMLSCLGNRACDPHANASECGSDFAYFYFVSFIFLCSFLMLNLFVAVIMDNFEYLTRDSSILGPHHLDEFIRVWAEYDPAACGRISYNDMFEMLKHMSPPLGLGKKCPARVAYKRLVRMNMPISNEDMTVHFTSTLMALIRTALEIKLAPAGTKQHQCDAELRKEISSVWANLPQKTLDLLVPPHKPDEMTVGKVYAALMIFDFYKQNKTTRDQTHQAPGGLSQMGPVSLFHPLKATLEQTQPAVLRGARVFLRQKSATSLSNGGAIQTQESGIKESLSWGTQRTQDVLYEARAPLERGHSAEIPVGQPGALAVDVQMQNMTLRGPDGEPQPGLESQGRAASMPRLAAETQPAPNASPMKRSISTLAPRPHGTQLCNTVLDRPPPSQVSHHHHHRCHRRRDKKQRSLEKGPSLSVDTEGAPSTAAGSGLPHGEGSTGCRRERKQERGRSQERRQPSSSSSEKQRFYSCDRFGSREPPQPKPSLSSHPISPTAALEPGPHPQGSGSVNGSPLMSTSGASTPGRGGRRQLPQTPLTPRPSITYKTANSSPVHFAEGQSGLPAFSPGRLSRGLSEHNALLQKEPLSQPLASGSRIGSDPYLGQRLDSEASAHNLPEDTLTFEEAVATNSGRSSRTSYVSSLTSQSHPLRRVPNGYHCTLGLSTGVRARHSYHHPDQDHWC
UniProt P54290, 25-944 partner limits assumed: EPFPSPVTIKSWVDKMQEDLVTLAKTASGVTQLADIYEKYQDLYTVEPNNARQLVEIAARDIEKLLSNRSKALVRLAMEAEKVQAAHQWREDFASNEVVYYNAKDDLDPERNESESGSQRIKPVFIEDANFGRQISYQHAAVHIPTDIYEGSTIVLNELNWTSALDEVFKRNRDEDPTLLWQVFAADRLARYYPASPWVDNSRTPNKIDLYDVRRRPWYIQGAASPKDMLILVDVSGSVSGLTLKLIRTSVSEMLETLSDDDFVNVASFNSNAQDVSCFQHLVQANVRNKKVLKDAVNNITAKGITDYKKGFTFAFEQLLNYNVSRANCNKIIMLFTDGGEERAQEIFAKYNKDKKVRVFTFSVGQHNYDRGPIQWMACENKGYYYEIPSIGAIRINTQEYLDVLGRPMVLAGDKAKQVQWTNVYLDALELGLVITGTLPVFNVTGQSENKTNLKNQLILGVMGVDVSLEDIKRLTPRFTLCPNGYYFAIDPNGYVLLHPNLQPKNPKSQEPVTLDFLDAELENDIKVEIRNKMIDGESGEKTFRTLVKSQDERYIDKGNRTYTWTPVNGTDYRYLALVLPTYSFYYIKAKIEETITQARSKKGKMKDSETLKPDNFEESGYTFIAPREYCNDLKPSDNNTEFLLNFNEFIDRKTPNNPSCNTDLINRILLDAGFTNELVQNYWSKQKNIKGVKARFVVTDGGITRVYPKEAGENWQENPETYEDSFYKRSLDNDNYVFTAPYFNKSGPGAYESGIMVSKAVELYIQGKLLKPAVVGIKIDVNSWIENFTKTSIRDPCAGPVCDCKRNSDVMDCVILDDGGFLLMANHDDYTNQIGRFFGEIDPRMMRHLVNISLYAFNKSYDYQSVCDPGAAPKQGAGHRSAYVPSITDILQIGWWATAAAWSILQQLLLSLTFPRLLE
UniProt P54290, 945-1091 partner limits assumed: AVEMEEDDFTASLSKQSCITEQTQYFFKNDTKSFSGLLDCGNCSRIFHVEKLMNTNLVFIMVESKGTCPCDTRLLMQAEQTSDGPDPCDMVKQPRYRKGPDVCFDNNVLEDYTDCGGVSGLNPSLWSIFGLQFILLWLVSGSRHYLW
UniProt P54287, whole entry partner: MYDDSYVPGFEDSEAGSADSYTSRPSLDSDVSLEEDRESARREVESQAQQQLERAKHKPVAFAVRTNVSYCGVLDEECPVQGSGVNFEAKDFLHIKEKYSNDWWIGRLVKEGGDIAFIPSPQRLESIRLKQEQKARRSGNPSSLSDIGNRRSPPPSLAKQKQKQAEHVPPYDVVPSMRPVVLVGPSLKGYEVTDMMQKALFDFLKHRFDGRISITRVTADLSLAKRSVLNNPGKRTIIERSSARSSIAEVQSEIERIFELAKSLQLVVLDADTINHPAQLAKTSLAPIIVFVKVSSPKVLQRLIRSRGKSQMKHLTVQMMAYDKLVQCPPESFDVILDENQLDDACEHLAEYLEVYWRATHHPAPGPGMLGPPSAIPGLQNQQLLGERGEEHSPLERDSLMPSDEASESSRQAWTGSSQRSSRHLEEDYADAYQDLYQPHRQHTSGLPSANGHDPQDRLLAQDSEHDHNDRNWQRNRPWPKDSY

Tests used:
[1] = molecular target: high affinity ω-conotoxin GVIA binding site on mammalian brain Ca^2+ channels (Rattus norvegicus, UniProt Q02294); experiment: Binding competition at ω-conotoxin GVIA site (MrVIA)
ω-conotoxin site = ω-conotoxin site (Rattus norvegicus, UniProt Q02294); experiment: Binding competition with [125I]ω-conotoxin GVIA on rat brain membranes; settings: conditions optimal for δ-conotoxin TxVIA binding; no additions 4405 ± 123
[2] = test system: high-affinity sites on rat brain Na channel; experiment: Binding competition with [125I]δ-conotoxin TxVIA on rat brain membranes; settings: conditions optimal for δ-conotoxin TxVIA binding; no additions 4890 ± 691

Substance	competitive binding inhibition at ω-conotoxin GVIA site [1]	[^125 I]ω-GVIA label (cpm bound) (ω-conotoxin site)	[^125 I]δ-TxVIA label (cpm bound) [2]
Ala-Cys-Arg-Lys-Lys-Trp-Glu-Tyr-Cys-Ile-Val-Pro-Ile-Ile-Gly-Phe-Ile-Tyr-Cys-Cys-Pro-Gly-Leu-Ile-Cys-Gly-Pro-Phe-Val-Cys-Val	does not occur	–	–
Glu-Ala-Cys-Tyr-Ala-Xaa1 -Gly-Thr-Phe-Cys-Gly-Ile-Lys-Xaa2 -Gly-Leu-Cys-Cys-Ser-Glu-Phe-Cys-Leu-Pro-Gly-Val-Cys-Pro-Gly [δ-conotoxin PVIA (nonamidated)]	–	4393 ± 458 cpm bound	848 ± 196 cpm bound
